{"source": "paper PMC3516572", "about": "“MiniCD4 Microbicide Prevents HIV Infection of Human Mucosal Explants and Vaginal Transmission of SHIV162P3 in Cynomolgus Macaques” (PLoS Pathogens, 2012)", "key": {"gp120": {"target": "gp120", "settings": "cited from earlier work"}, "[1]": {"tested_on": "co-cultures of monocyte-derived dendritic cells (MO-DC) and allogeneic CD4+ T cells", "settings": "highest concentrations tested; cited from earlier work", "description": "(§1) These positive results prompted further assessment of the activity of M48U1 in genital and colorectal tissue explants models. Nonpolarized cervical and colorectal explant tissues were pre-treated with M48U1 for 1 h at 37°C followed by exposure to HIV-1Ba-L for 2 h in the continued presence of compound."}, "[2]": {"tested_on": "ME-180 endocervical cells", "settings": "highest concentrations tested; cited from earlier work", "description": "as §1"}, "SHIV162P3": {"tested_on": "SHIV162P3", "experiment": "TZM-bl assay, SHIV162P3", "type": "cell-based, simian-human immunodeficiency virus", "settings": "IC50 SHIV162P3 / IC50 HIV-1SF162, TZM-bl", "description": "(§2) Primary HIV-1SF162 or SHIV162P3 were briefly amplified in PHA-IL2 activated human PBMC. Corresponding Env expressing constructs were prepared by DNA amplification of the complete Env gene from PBMC co-cultures and subsequent cloning into pSV7d or pcDNA4/TO expression vector (Invitrogen BV, Groningen, The Netherlands). Sequencing of the pseudovirus construct and phylogenetic analysis of the complete gp160 confirmed the relation between the pseudovirus and the associated original virus.\nAdherent CD4 and CCR5 expressing TZM-bl cell line with a luciferase reporter gene under HIV LTR control (NIH AIDS Research and Reference Reagent Program) was cultured in DMEM containing 1% L-glutamine, 10% heat-inactivated FBS, and 50 µg/mL gentamicin.\n(§3) The inhibitory activity of M48U1 against either HIV-1SF162, SHIV162P3 or corresponding pseudoviruses was measured as follows: 50 µL of (pseudo)virus suspension and 50 µL of a serial dilution of M48U1 or 50 µL medium (negative control) were pre-incubated for 30 min. […] Next the luciferase activity (proportional to the amount of infectious virus particles) was measured using a TriStar LB941 luminometer (Berthold Technologies GmbH & Co.KG., Bad Wildbad, Germany) and expressed as relative light units (RLU). Finally, the inhibitory activity was calculated in GraphPad Prism 5.03 using non-linear regression (GraphPad Software, San Diego, CA, USA). […]"}, "penile tissue explants": {"tested_on": "penile tissue explants", "experiment": "MTT viability assay on penile tissue explants", "type": "cell-based, human", "settings": "24 h at 37°C, then MTT 2 h; M48U1 ten-fold dilutions, highest concentrations tested; nonoxynol-9 at 500 ng/mL; two independent experiments in triplicates", "from_the_text": "Cervical tissue was obtained from patients undergoing planned therapeutic hysterectomy at St. George's Hospital in London, United Kingdom. Surgically resected specimens of colorectal tissue were collected at St. George's Hospital, London, United Kingdom. Penile tissue (glans) was obtained from individuals undergoing gender reassignment surgery at Charing Cross Hospital. All tissues were collected after signed informed consent was received from all patients and under protocols approved by the Local Research Ethics Committee (National Research Ethic Service NHS). On arrival in the laboratory, resected tissue was cut into 2–3 mm^3 explants comprising both epithelial and stromal tissue or muscularis mucosae, depending on the tissue, as described previously, [22].\nPenile tissues and PM-1 T cells were incubated in complete RPMI medium supplemented with ten-fold dilutions of M48U1 for 24 h at 37°C. Nonoxynol-9 microbicide (tested at 500 ng/mL) was employed as cytotoxic reference. […] For tissue, after releasing the formazan in ethanol overnight, cytotoxicity was determined by measuring the optical density of the purple formazan product at 570–690 nm using Synergy HT multi-detection microplate reader. For PM-1 cells, the absorption of the formazan product was determined after lysis of the cells."}, "PV SHIV162P3": {"tested_on": "PV SHIV162P3", "experiment": "TZM-bl assay, pseudovirus with SHIV162P3 envelope", "type": "cell-based, simian-human immunodeficiency virus", "settings": "IC50 PV SHIV162P3 / IC50 PV HIV-1SF162, TZM-bl", "description": "as §2\nPseudoviruses were generated in a 24-well plate by co-transfection of 2×10^5 human embryonic kidney (HEK) 293T cells (obtained from ATCC) with pNL4-3. […]\nas §3"}, "PM-1 T cells": {"tested_on": "PM-1 T cells", "experiment": "MTT viability assay on PM-1 T cells", "type": "cell-based", "settings": "24 h at 37°C, then MTT 2 h; M48U1 ten-fold dilutions, highest concentrations tested; nonoxynol-9 at 500 ng/mL; two independent experiments in triplicates", "description": "Penile tissues and PM-1 T cells were incubated in complete RPMI medium supplemented with ten-fold dilutions of M48U1 for 24 h at 37°C. Nonoxynol-9 microbicide (tested at 500 ng/mL) was employed as cytotoxic reference. The compounds were removed and the tissue explants and cells were incubated for 2 h in medium containing 500 µg/mL of 3-(4,5-dimethylthiazol-2-yl)-2,5-diphenyltetrazolium bromide (MTT). For tissue, after releasing the formazan in ethanol overnight, cytotoxicity was determined by measuring the optical density of the purple formazan product at 570–690 nm using Synergy HT multi-detection microplate reader. For PM-1 cells, the absorption of the formazan product was determined after lysis of the cells."}}, "data": [{"smiles": "CC(C)C[C@@H]1NC(=O)CNC(=O)[C@H](CC(C)C)NC(=O)[C@H](CO)NC(=O)[C@H](CCCCN)NC(=O)[C@@H]2CSSC[C@@H](C(=O)N[C@H](C(N)=O)C(C)C)NC(=O)[C@H](C)NC(=O)[C@@H]3CSSC[C@H](NC(=O)[C@H](Cc4ccccc4)NC(=O)[C@H](Cc4cnc[nH]4)NC(=O)[C@H](CC(C)C)NC(=O)[C@H](CC(N)=O)NC(=O)CCSSC[C@H](NC(=O)[C@H](CCCNC(=N)N)NC(=O)CNC(=O)[C@H](CC(C)C)NC1=O)C(=O)N[C@@H](C)C(=O)N1CCC[C@@H]1C(=O)N[C@@H]([C@@H](C)O)C(=O)N[C@@H](Cc1ccc(OCC4CCCCC4)cc1)C(=O)N3)C(=O)N[C@@H](CCC(N)=O)C(=O)N[C@@H](CC(C)C)C(=O)N[C@@H](CCCNC(=N)N)C(=O)N2", "note": "[M48U1]", "values": [{"measurement": "Affinity for gp120", "setting": "gp120", "value": "sub-nanomolar"}, {"measurement": "Cytotoxicity (MTT) in MO-DC / allogeneic CD4+ T cell co-cultures", "setting": "[1]", "value": "no apparent cytotoxicity"}, {"measurement": "Cytotoxicity (MTT) in ME-180 endocervical cells", "setting": "[2]", "value": "no apparent cytotoxicity"}, {"measurement": "Ratio SHIV/SF (virus)", "setting": "SHIV162P3", "value": 26}, {"measurement": "Cytotoxicity (MTT) in penile tissue", "setting": "penile tissue explants", "value": "no apparent cytotoxicity"}, {"measurement": "Ratio SHIV/SF (pseudovirus)", "setting": "PV SHIV162P3", "value": 11}, {"measurement": "Cytotoxicity (MTT) in PM-1 T-cell line", "setting": "PM-1 T cells", "value": "no apparent cytotoxicity"}]}]}
